This passage reports Kd results from PMC9376891, “Structural basis for Sarbecovirus ORF6 mediated blockage of nucleocytoplasmic transport” (Nature Communications, 2022).

The chains behind the UniProt entries cited, without tags or fusion partners. Residues count along the entry.
UniProt P52948, 157-213 partner limits assumed: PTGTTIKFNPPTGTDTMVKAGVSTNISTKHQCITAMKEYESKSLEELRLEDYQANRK
UniProt P78406, 31-368 limits assumed: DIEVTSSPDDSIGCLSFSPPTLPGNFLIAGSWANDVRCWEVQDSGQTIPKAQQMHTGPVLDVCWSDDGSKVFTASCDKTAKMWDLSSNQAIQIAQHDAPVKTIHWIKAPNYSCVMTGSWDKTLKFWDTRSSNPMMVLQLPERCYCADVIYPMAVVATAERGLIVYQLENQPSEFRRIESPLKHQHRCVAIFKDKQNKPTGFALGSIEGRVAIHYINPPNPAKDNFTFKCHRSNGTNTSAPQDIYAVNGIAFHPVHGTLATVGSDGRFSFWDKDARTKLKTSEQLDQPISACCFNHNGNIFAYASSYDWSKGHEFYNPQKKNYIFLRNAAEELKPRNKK

The term pKd denotes −log10 of the Kd, conventionally taken in molar units. Read a high pKd as a low Kd.

This test has as its target Rae1_31-368-Nup98_157-213 heterodimer (Rae1-Nup98 complex) (Homo sapiens, UniProt P52948+P78406). Briefly: Isothermal titration calorimetry (ITC) of peptides with Rae1-Nup98. It is filed as binding. Particulars: 25 °C, 20 mM Tris-HCl pH 8.0, 100 mM NaCl, peptide 0.5-1 mM titrated into 0.03 mM protein, single-site model. (ITC needs no label: the signal is the heat of the interaction.)

pKd: −log10 of the molar value.

Compound `CC[C@H](C)[C@H](NC(=O)[C@H](C)NC(=O)[C@H](CCSC)NC(=O)[C@@H]1CCCN1C(=O)[C@H](CCC(N)=O)NC(=O)[C@H](CCC(=O)O)NC(=O)[C@H](CCC(=O)O)NC(=O)[C@H](CC(=O)O)NC(=O)[C@H](CC(C)C)NC(=O)[C@H](CCC(N)=O)NC(=O)[C@H](CO)NC(=O)[C@@H](N)Cc1ccc(O)cc1)C(=O)N[C@@H](CC(=O)O)C(=O)O` gave a negative logarithm of the Kd (pKd) of 5.78. With `CC[C@H](C)[C@H](NC(=O)[C@H](CCC(=O)O)NC(=O)[C@H](CC(C)C)NC(=O)[C@@H]1CCCN1C(=O)[C@H](CCC(N)=O)NC(=O)[C@H](CCC(=O)O)NC(=O)[C@H](CCC(=O)O)NC(=O)[C@H](CC(=O)O)NC(=O)[C@H](CC(C)C)NC(=O)[C@H](CCC(N)=O)NC(=O)[C@H](CO)NC(=O)[C@@H](N)Cc1ccc(O)cc1)C(=O)N[C@@H](CC(=O)O)C(=O)O` the figure was 4.98; with `CC[C@H](C)[C@H](NC(=O)[C@H](CCC(=O)O)NC(=O)[C@H](CCSC)NC(=O)[C@@H]1CCCN1C(=O)[C@H](CCC(N)=O)NC(=O)[C@H](CCC(=O)O)NC(=O)[C@H](CCC(=O)O)NC(=O)[C@H](CC(=O)O)NC(=O)[C@H](CC(C)C)NC(=O)[C@H](CCC(N)=O)NC(=O)[C@H](CO)NC(=O)[C@@H](N)Cc1ccc(O)cc1)C(=O)N[C@@H](C)C(=O)O`, 5.56. Turning to `CSCC[C@H](NC(=O)[C@@H]1CCCN1C(=O)[C@H](CCC(N)=O)NC(=O)[C@H](CCC(=O)O)NC(=O)[C@H](CCC(=O)O)NC(=O)[C@H](CC(=O)O)NC(=O)[C@H](CC(C)C)NC(=O)[C@H](CCC(N)=O)NC(=O)[C@H](CO)NC(=O)[C@@H](N)Cc1ccc(O)cc1)C(=O)N[C@@H](CCC(=O)O)C(=O)N[C@@H](C)C(=O)N[C@@H](CC(=O)O)C(=O)O`, the pKd was 5.38. The result for `CC[C@H](C)[C@H](NC(=O)[C@H](CCC(=O)O)NC(=O)[C@H](CCSC)NC(=O)[C@@H]1CCCN1C(=O)[C@H](C)NC(=O)[C@H](CCC(=O)O)NC(=O)[C@H](CCC(=O)O)NC(=O)[C@H](CC(=O)O)NC(=O)[C@H](CC(C)C)NC(=O)[C@H](CCC(N)=O)NC(=O)[C@H](CO)NC(=O)[C@@H](N)Cc1ccc(O)cc1)C(=O)N[C@@H](CC(=O)O)C(=O)O` reads 6.38; that for `CC[C@H](C)[C@H](NC(=O)[C@H](CCC(=O)O)NC(=O)[C@H](CCSC)NC(=O)[C@H](C)NC(=O)[C@H](CCC(N)=O)NC(=O)[C@H](CCC(=O)O)NC(=O)[C@H](CCC(=O)O)NC(=O)[C@H](CC(=O)O)NC(=O)[C@H](CC(C)C)NC(=O)[C@H](CCC(N)=O)NC(=O)[C@H](CO)NC(=O)[C@@H](N)Cc1ccc(O)cc1)C(=O)N[C@@H](CC(=O)O)C(=O)O`, 6.05.
